A mixed list of measured activities; the numbers were collected in NIAID ChemDB.

Shared fields: tests in culture; agent: Hepatitis C virus

Lines come from different laboratories, so protocols vary. Blank or dashed fields: not listed here. Inhibition is in % at the dose shown (toxicity tests: loss of growth or viability). Fold resistance has wild type as its base. ECn: concentration that inhibits the pathogen or its effect by n%.

SMILES,strain or isolate,changes,cell line,method,read-out,tested at,result
O=C1C(=O)c2ccccc2C(O)=C1CC=C(Cl)Cl,,,Huh7,PCR,EC90,,>100 µM
O=C1OC2(c3ccc(O)cc3Oc3cc(O)ccc32)c2c1c(-c1ccccc1)c(-c1ccccc1)c(-c1ccccc1)c2-c1ccccc1,sg1b,,Huh7-1,PCR,EC50,,4.7 µM
CC1CCC(C(=O)N(c2cc(C#CC(C)(C)C)sc2C(=O)O)C2CCC(O)CC2)CC1,GT-1b Con1,,Huh7-Lunet,luciferase,EC50,,0.006 µM
CCCCCCCCCCCCCCCc1cccc(O)c1C(=O)O,JFH-1 (gt 2a),,Huh7,luciferase,inhibition,5 µM,40%
CCCC(NC(=O)[C@@H]1C[C@@H](OC(C)(C)C)CN1C(=O)[C@@H](NC(=O)OCC(C)C)C(C)(C)C)C(=O)C(=O)NCC(=O)N[C@H](C(=O)N(C)C)c1ccccc1,,,,,EC90,,3 µM
N#Cc1c(-c2ccccc2Cl)nc(SCc2nc3ccccc3[nH]2)[nH]c1=O,,,Huh7,replicon / PCR,EC90,,0.564 µM
Fc1ccccc1-c1nc2ccn(Cc3ccc(-c4ccc(C(F)(F)F)cc4C(F)(F)F)nn3)cc-2n1,6a,,Huh7,luciferase,EC50,,0.0855 µM
Clc1ccc(Cn2c(CN3CCCC3)nc3ccccc32)cc1,1b Con1,,Huh7,luciferase / replicon,inhibition,12.5 µM,71.91%
CNC(=O)c1c(-c2ccc(F)cc2)oc2cc(N(CCO)S(C)(=O)=O)c(C3CC3)cc12,1a,,Huh7,luciferase,EC50,,0.0077 µM
O=c1cc(-c2ccc(O)cc2)oc2cc(O)cc(O)c12,G1,,Huh7,PCR,inhibition,1 µM,30%
C[C@@]1(O)[C@H](O)[C@@H](CO)O[C@H]1c1coc2c(N)ncnc12,,,HepG2-T5B,MTT,inhibition,50 µg/mL,0%
CCC[C@H](NC(=O)[C@@H]1[C@H]2CCC[C@H]2CN1C(=O)[C@@H](NC(=O)[C@@H](NC(=O)c1cnccn1)C1CCCCC1)C(C)(C)C)C(=O)C(=O)NC1CC1,HK6a,,Huh7.5,antigen,EC50,,0.454 µM
O=C(O)c1c(-c2ccco2)nc(SCc2nc3ccccc3[nH]2)[nH]c1=O,,,Huh7,replicon / PCR,EC90,,0.535 µM
CC(C)(CO)C(=O)SCCOP(=O)(NCc1ccccc1)OC[C@H]1O[C@@H](n2cnc3c(=O)[nH]c(N)nc32)[C@](C)(O)[C@@H]1O,GT1a,E295G,Replicon cells,replicon,fold resistance,,1.3
CN(Cc1cnc2nc(N)nc(N)c2n1)c1ccc(C(=O)N[C@@H](CCC(=O)O)C(=O)O)cc1,,,Huh7,PCR,EC90,,>100 µM
CC(=N/O)/C(C)=N/O,JFH-1,,Huh7-1,PCR,EC50,,18.9 µM
C[C@@]1(O)[C@H](O)[C@@H](CO)O[C@H]1n1cnc2c(N)ncnc21,genotype 1b,,Huh7.5,luciferase / reporter gene,EC90,,0.5655 µM
COC(=O)N[C@H](C(=O)N1CCC[C@H]1c1ncc(-c2ccc(-c3ccc(-c4cnc([C@@H]5CCCN5C(=O)[C@@H](NC(=O)OC)C(C)C)[nH]4)cc3)cc2)[nH]1)C(C)C,1b Con1,,Huh7,luciferase / replicon,inhibition,0.00016 µM,97.59%
O=c1cc(Sc2ccc(F)cc2F)c2cc(F)ccc2o1,,,Ava5,,inhibition,10 µM,81%
N#Cc1c(-c2ccccc2O)nc(SCc2nc3ccccc3[nH]2)[nH]c1=O,,,Huh7,replicon / PCR,EC90,,0.345 µM
CC1=CC[C@H](C(=O)N(c2cc(C#CC(C)(C)C)sc2C(=O)O)C2CCC(O)(CO[C@H]3CCOC3)CC2)CC1,GT3a,,Huh7-Lunet,luciferase,EC50,,>50 µM
O=C(O)c1c(-c2ccc(Cl)cc2)nc(SCc2nc3ccccc3[nH]2)[nH]c1=O,,,Huh7,replicon / PCR,EC90,,0.879 µM
O=C(O)c1cccc([As]=[As]c2cccc(C(=O)O)c2)c1,JFH-1,,Huh7-1,PCR,EC50,,2.6 µM
O=c1[nH]c(=O)n([C@H]2C[C@H](O)[C@@H](CO)O2)cc1F,,,Huh7,PCR,EC90,,>100 µM
O=C(O)c1c(-c2ccccc2Cl)nc(SCc2nc3ccccc3[nH]2)[nH]c1=O,,,Huh7,replicon / PCR,EC90,,0.666 µM
O=c1oc2ccccc2c(Sc2ccc(Br)cc2)c1Sc1ccc(F)cc1,,,Ava5,,inhibition,10 µM,47.5%
N#Cc1c(-c2ccccc2)nc(NCc2nc3ccccc3[nH]2)[nH]c1=O,,,Huh7,replicon / PCR,EC90,,0.678 µM
C[C@H](Br)C(=O)c1ccc2cc(Br)c3ccccc3c2c1,sg2a (JFH),,Huh7-1,PCR,EC50,,12.2 µM
COc1ccc2oc(=O)cc(Sc3ccccc3F)c2c1,,,Ava5,,inhibition,10 µM,4.5%
O=c1c(O)c(-c2ccc(O)c(O)c2)oc2cc(O)cc(O)c12,G1,,Huh7,PCR,inhibition,0.1 µM,49%
CCN(CC)CCCC(C)Nc1ccnc2cc(Cl)ccc12,,,,MTT,MIC,,50 µM
C=CC(=O)NCC(=O)N1C[C@H](Oc2nccc3ccc(Br)cc23)C[C@H]1C(=O)N[C@]1(C(=O)NS(=O)(=O)C2CC2)C[C@H]1C=C,1b D168V,,,luciferase,EC50,,>3 µM
Cc1ccc(Sc2c(Sc3ccc(F)cc3Cl)c3ccccc3oc2=O)cc1C,,,Ava5,,inhibition,10 µM,60.5%
Nc1ccn([C@@H]2C[C@H](CO)[C@@H](O)[C@H]2O)c(=O)n1,,,Huh7,PCR,EC90,,25 µM
CC(C)OC(=O)[C@H](C)N[P@](=O)(OC[C@H]1O[C@@](C#N)(c2ccc3c(N)ncnn23)[C@](C)(O)[C@@H]1OC(=O)C(C)C)Oc1ccccc1,1b Con1,L31V,1C,luciferase,fold resistance,,1.6
O=C(O)c1c(-c2ccccc2O)nc(NCc2nc3ccccc3[nH]2)[nH]c1=O,,,Huh7,replicon / PCR,EC90,,1.78 µM
NC(=O)c1ncn([C@@H]2O[C@H](CO)[C@@H](O)[C@H]2O)n1,,,Huh7,PCR,EC90,,100 µM
CC(=O)Nc1ccc(-c2ccc(Cl)cc2)c(COc2ccc(-c3nc4cc(C(=O)O)ccc4n3C3CCCCC3)cc2)c1,4a,,Huh7,luciferase,EC50,,1.826 µM
CC[C@H](C)C(=O)O[C@H]1C[C@H](O)C=C2C=C[C@H](C)C(CC[C@@H](O)C[C@H](O)CC(=O)O)[C@H]21,,,Huh 9-13,luciferase / replicon,EC90,,>20 µM

A second listing of 3 rows from above:

CC(C)OC(=O)[C@H](C)N[P@](=O)(OC[C@H]1O[C@@](C#N)(c2ccc3c(N)ncnn23)[C@](C)(O)[C@@H]1OC(=O)C(C)C)Oc1ccccc1 ; strain or isolate: 1b Con1 ; changes: L31V ; cell line: 1C ; method: luciferase ; read-out: fold resistance ; result: 1.6
O=c1oc2ccccc2c(Sc2ccc(Br)cc2)c1Sc1ccc(F)cc1 ; cell line: Ava5 ; read-out: inhibition ; tested at: 10 µM ; result: 47.5%
CC1CCC(C(=O)N(c2cc(C#CC(C)(C)C)sc2C(=O)O)C2CCC(O)CC2)CC1 ; strain or isolate: GT-1b Con1 ; cell line: Huh7-Lunet ; method: luciferase ; read-out: EC50 ; result: 0.006 µM